PSTVd loop 15 mutant pool in Nicotiana benthamiana

PSTVd intermediate strain, loop 15: wild type GGAAACCGCUACUAC, pool pattern GGAAACCGNNNNNNC; upper and lower strand joined, each 5' to 3', the first 7 letters being the upper strand, closing pairs included.

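Three N. benthamiana plants were inoculated with the whole mutant pool. Samples came from the inoculated region at 5 days, the leaf margin at 10 and upper systemic leaves at 12.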

Values are reads per thousand in the sample; higher means more abundant, 0 means not found.
Each value is the mean of three plants.
"Pool" is the share in the plasmid pool used as inoculum, on the same scale.
The inoculated region was read from the minus strand, the other sites from the plus strand.
IR is the inoculated region, LM the leaf margin, Sys the systemic leaves.
With 43,870-66,106 reads a sample, very low values are single reads.

sequence	pool	IR	LM	Sys
GGAAACCGUCAGUGC	0.272	0.462	0.313	0.0895
GGAAACCGCCGCUGC	0.192	0.115	0.00668	0
GGAAACCGUACGACC	0.240	0.114	0.0108	0
GGAAACCGCAAAAUC	0.144	0.0616	0.0141	0.00760
GGAAACCGCCCCGCC	0.304	0.101	0.00539	0
GGAAACCGAUGGACC	0.176	0.0695	0.00668	0
GGAAACCGGGAGCGC	0.224	0.0831	0.0187	0
GGAAACCGACACGGC	0.176	0.0950	0.0128	0
GGAAACCGAGUUCCC	0.288	0.147	0.00668	0
GGAAACCGGCAUCAC	0.272	0.109	0.00742	0
GGAAACCGCGAUAAC	0.336	0.333	0.0785	0.0667
GGAAACCGCGGGUGC	0.112	0.360	0.107	0.0107
GGAAACCGCUGAGCC	0.128	0.171	0.00742	0
GGAAACCGCGAUGGC	0.208	0.0668	0	0
GGAAACCGAUAGUCC	0.224	0.371	0.118	0.0689
GGAAACCGGAUCCGC	0.0960	0.152	0.0121	0.00537
GGAAACCGUGGGCCC	0.208	0.143	0	0.00537
GGAAACCGUUAUUGC	0.336	0.382	0.120	0.0790
GGAAACCGCACGCAC	0.288	0.0867	0	0
GGAAACCGCCCGAGC	0.192	0.0877	0.0256	0
GGAAACCGGCCGUCC	0.256	0.0534	0.00742	0
GGAAACCGUUGCGCC	0.208	0.106	0	0
GGAAACCGCAGUUUC	0.224	0.119	0.0108	0
GGAAACCGCUAUCCC	0.224	0.0920	0.00539	0
GGAAACCGGUACCGC	0.224	0.129	0.00668	0.00537
GGAAACCGUACACUC	0.176	0.129	0.00668	0
GGAAACCGGAGGAUC	0.176	0.117	0.0182	0
GGAAACCGCAUACGC	0.256	0.156	0.00668	0
GGAAACCGCGGUAGC	0.144	0.122	0	0
GGAAACCGCAGGCGC	0.304	0.104	0.0148	0
GGAAACCGUCAAUCC	0.192	0.367	0.436	0.0322
GGAAACCGAUCCUAC	0.240	0.368	0.134	0.0566
GGAAACCGCUUUCUC	0.208	0.150	0.0134	0.00537
GGAAACCGACCUCAC	0.192	0.151	0.00539	0
GGAAACCGACAACGC	0.256	0.126	0.0195	0
GGAAACCGGGACAGC	0.144	0.0875	0.00742	0
GGAAACCGGUGCGAC	0.288	0.0791	0.00668	0.00537
GGAAACCGACAUUCC	0.272	0.0851	0.00668	0.00537
GGAAACCGAAGGCAC	0.224	0.0587	0.0141	0

A selection of 2 entries from above:

sequence	pool	IR	LM	Sys
GGAAACCGCUUUCUC	0.208	0.150	0.0134	0.00537
GGAAACCGUUGCGCC	0.208	0.106	0	0

For reference, wild type rose from 33.9 per thousand in the pool to 202, 200, 159 (inoculated region), 724, 746, 710 (leaf margin) and 856, 883, 880 (systemic leaves).
Sequences that differ at fixed positions probably stem from PCR or sequencing errors, and defective variants can be carried along by functional ones.

From the data files of Wu et al. 2024, doi:10.1371/journal.ppat.1012142.